PubChem BioAssay AID1224833 – University of Georgia | 2016

Screen: 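Host factors restraining rotavirus as candidate antiviral genes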 (primary screen)
Cells: monkey MA104 kidney cells
Reagents: siRNA pool against human genes, 50 nM
Timing: 48 h knock-down before infection; read 24 h after infection
Challenge: infection with rotavirus strain RV3 two days after transfection; infectious dose for this stage not given
Detection: 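Rotavirus antigen per well by fluorescent immunoassay, normalised to non-targeting control wells on each plate and given as a standard z-score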
Direction: z-score vs non-targeting control: higher = more rotavirus replication than with non-targeting control
Rule for the call: In these data the active calls have z-score vs non-targeting control at about -1 or lower, or at about 1 or higher
Calls: active = z-score beyond 1 either way; inactive = z-score within 1 of zero
Shown is a random part of about 12,000 reagents. About 5,600 of all reagents (46%) were called active. 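Active calls cover z-scores past 1 in both directions, so they include lowered as well as raised rotavirus replication.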 A number with no mark means an inactive call.

The opening 4 records, to show the layout:
| Gene | z-score vs non-targeting control |
| --- | --- |
| DCTN5 (GeneID 84516) | -0.541 |
| LDHAL6B (GeneID 92483) | -1.63 (active) |
| SH3BP5 (GeneID 9467) | -2.11 (active) |
| WDR82 (GeneID 80335) | -0.788 |

The listing, repeating the preview:
| Gene | z-score vs non-targeting control |
| --- | --- |
| DCTN5 (GeneID 84516) | -0.541 |
| LDHAL6B (GeneID 92483) | -1.63 (active) |
| SH3BP5 (GeneID 9467) | -2.11 (active) |
| WDR82 (GeneID 80335) | -0.788 |
| ZBTB37 (GeneID 84614) | -1.18 (active) |
| TAF5L (GeneID 27097) | 1.08 (active) |
| ZNF714 (GeneID 148206) | 1.34 (active) |
| SLC67A1 (GeneID 5002) | -0.552 |
| DCLRE1A (GeneID 9937) | -1.52 (active) |
| MIPOL1 (GeneID 145282) | -0.842 |
| RAB6D (GeneID 150786) | 1.71 (active) |
| ZNF157 (GeneID 7712) | -0.168 |
| ARHGAP33 (GeneID 115703) | -0.883 |
| BBS9 (GeneID 27241) | -0.733 |
| MTCL1 (GeneID 23255) | 0.218 |
| CA10 (GeneID 56934) | -1.05 (active) |
| PNKD (GeneID 25953) | -2.82 (active) |
| NR4A1 (GeneID 3164) | -0.783 |
| CPB2 (GeneID 1361) | 0.661 |
| KHDC4 (GeneID 22889) | -0.418 |
| SULT1A4 (GeneID 445329) | 0.771 |
| TAFA4 (GeneID 151647) | 0.32 |
| PCDHGB4 (GeneID 8641) | 0.928 |
| PPP1R18 (GeneID 170954) | 0.927 |
| STRN (GeneID 6801) | 1.16 (active) |
| EPB41L2 (GeneID 2037) | -1.55 (active) |
| DNAAF3 (GeneID 352909) | -1.48 (active) |
| LRCH4 (GeneID 4034) | 1.28 (active) |
| CEP68 (GeneID 23177) | -1.86 (active) |
| CLDN5 (GeneID 7122) | -1.33 (active) |
| ZNF48 (GeneID 197407) | 0.135 |
| FCN2 (GeneID 2220) | -0.194 |
| KRT26 (GeneID 353288) | -1.45 (active) |
| SEC23B (GeneID 10483) | -1.33 (active) |
| CHGB (GeneID 1114) | 1.8 (active) |
| BOLA2 (GeneID 552900) | -1.01 (active) |
| ASPG (GeneID 374569) | -1.11 (active) |
| PACS1 (GeneID 55690) | -0.629 |
| HTATSF1 (GeneID 27336) | 0.799 |
| BRIP1 (GeneID 83990) | 2.14 (active) |
| ACTL7A (GeneID 10881) | -0.582 |
| PLA2G12B (GeneID 84647) | -2.08 (active) |
| TIPIN (GeneID 54962) | -1.78 (active) |
| TSPAN4 (GeneID 7106) | -0.994 |
| SLC12A3 (GeneID 6559) | -2.08 (active) |
